Results from article PMC10096180, “Half-Sandwich Type Platinum-Group Metal Complexes of C-Glucosaminyl Azines: Synthesis and Antineoplastic and Antimicrobial Activities” (Molecules, 2023).

Key:
Type in all cases: cell-based
Details in all cases: Hill slope
[1] = test system: A2780 cells; assay: SRB binding assay, cytostasis, 48 h treatment
Procedure: (§1) The complexes described above are intended to replace registered platinum complexes. Platinum complexes constitute the core of the chemotherapy regimen used in ovarian cancer; therefore, we used a cellular model of ovarian cancer, A2780, and primary human dermal fibroblasts as models of non-transformed cells (controls). For the characterization of the complexes, we used an MTT assay after 4 h of treatment for the detection of early toxicity and an SRB assay 48 h after treatment for the detection of cytostasis.
(§2) An SRB assay measures protein content of cells in correlation with the cell number in an assay well and can therefore be used to assess cell proliferation or long-term cytostasis. Cells were seeded in 96-well plates the day before the assay. Cells were treated with the compounds for 48 h. Then medium was removed, and cells were fixed with 10% trichloroacetic acid. Fixed cells were washed in distilled water 3 times, followed by staining with SRB (0.4 m/V% dissolved in 1% acetic acid) for 10 min. Stained cells were washed in 1% acetic acid 5 times; acetic acid was removed, and cells were left to dry. Protein-bound SRB was released by adding 100 μL 10 mM Tris base. Plates were measured in a plate photometer (Thermo Scientific Multiscan GO spectrophotometer, Waltham, MA, USA) at 540 nm. On each plate, wells were designed to contain vehicle-treated cells. In calculations, the readings for these wells were considered to be 1, and all readings were expressed relative to these values.
(§3) Statistical analysis was performed using version 8.0.1 of GraphPad Prism. Values were tested for normal distribution using the Shapiro–Wilk normality test. Nonlinear regression was performed using the built-in “[Inhibitor] vs. response—Variable slope (four parameters), least square fit” utility of GraphPad, which yielded IC50 and Hill slope values if the sigmoid curves reached a plateau of inhibition and there was no decrease between two subsequent data points or when inhibition was over 90%. In other cases, the percentage of inhibition was taken for the maximum concentration (100 μM).

[2] = test system: A2780 cells; assay: MTT reduction assay, early toxicity, 4 h treatment
Procedure: as §1
An MTT reduction assay was measures the activity of mitochondrial complex I and can be used to detect toxicity. The assay was performed in a manner similar to that described in [84]. Briefly, cells were plated in 96-well plates the day before the assay. Cells were treated with the compounds for 4 h; then, MTT was added to a 0.5 mg/mL final concentration, and cells were incubated at 37 °C in a cell incubator for 40–60 min as a function of the cell line being assessed. Culture medium was removed, the reduced MTT dye was dissolved in dimethyl-sulfoxide, and plates were measured in a plate photometer (Thermo Scientific Multiscan GO spectrophotometer, Waltham, MA, USA) at 540 nm. On each plate, wells were designed to contain vehicle-treated cells. In calculations, the readings for these wells were considered to 1, and all readings were expressed relative to these values.
as §3

[3] = test system: primary human dermal fibroblasts; assay: SRB binding assay, cytostasis, 48 h treatment
Procedure: as §1, §2, §3

[4] = test system: ID8 cells; assay: SRB assay, 48 h
Procedure: (§4) Figure 8 Assessment of free ligand 3a and complex Ru-3a for cytostatic activity in multiple carcinomas. […] Cells were treated with the compounds in the concentrations indicated for 48 h; then, an SRB assay was performed. Data are represented as average ± SD from three biological replicates; individual assays were performed in duplicates. Values were normalized for vehicle-treated cells; absorbance for vehicle-treated cells equals 1. Statistical significance was assessed using a one-way ANOVA test comparing all values to the lowest concentration of a compound. Before the test, normality was assessed using the Shapiro–Wilk test, and the post hoc test was chosen accordingly. […] An SRB assay measures protein content of cells in correlation with the cell number in an assay well and can therefore be used to assess cell proliferation or long-term cytostasis. Cells were seeded in 96-well plates the day before the assay. Cells were treated with the compounds for 48 h. Then medium was removed, and cells were fixed with 10% trichloroacetic acid. […] Stained cells were washed in 1% acetic acid 5 times; acetic acid was removed, and cells were left to dry. Protein-bound SRB was released by adding 100 μL 10 mM Tris base. Plates were measured in a plate photometer (Thermo Scientific Multiscan GO spectrophotometer, Waltham, MA, USA) at 540 nm. On each plate, wells were designed to contain vehicle-treated cells. […] Statistical analysis was performed using version 8.0.1 of GraphPad Prism. Values were tested for normal distribution using the Shapiro–Wilk normality test. […] In other cases, the percentage of inhibition was taken for the maximum concentration (100 μM).

[5] = test system: U251 cells; assay: SRB assay, 48 h
Procedure: as §4

SMILES | A2780 SRB Hill [1] | A2780 MTT Hill [2] | Fibroblast SRB Hill [3] | ID8 SRB Hill [4] | U251 SRB Hill [5]
Cc1ccc(C(C)C)cc1.F[P-](F)(F)(F)(F)F.NC1C(c2cccnn2)OC(COC(=O)c2ccccc2)C(OC(=O)c2ccccc2)C1OC(=O)c1ccccc1.[Cl][Ru+] (mixture of isomers) [Ru-7b] | 2.57 | – | – | – | –
Cc1c(C)c(C)[c-](C)c1C.F[P-](F)(F)(F)(F)F.NC1C(c2cccnn2)OC(COC(=O)c2ccccc2)C(OC(=O)c2ccccc2)C1OC(=O)c1ccccc1.[Cl][Rh+2] (mixture of isomers) [Rh-7b] | 1.97 | – | – | – | –
Cc1ccc(C(C)C)cc1.F[P-](F)(F)(F)(F)F.N[C@@H]1[C@@H](OCc2ccccc2)[C@H](OCc2ccccc2)[C@@H](COCc2ccccc2)O[C@H]1c1cnccn1.[Cl][Os+] [Os-3d] | 2.52 | 1.98 | – | – | –
Cc1c(C)c(C)[c-](C)c1C.F[P-](F)(F)(F)(F)F.N[C@@H]1[C@@H](OCc2ccccc2)[C@H](OCc2ccccc2)[C@@H](COCc2ccccc2)O[C@H]1c1ccccn1.[Cl][Ir+2] [Ir-3a] | 1.41 | – | 2.12 | – | –
Cc1c(C)c(C)[c-](C)c1C.F[P-](F)(F)(F)(F)F.N[C@@H]1[C@@H](OCc2ccccc2)[C@H](OCc2ccccc2)[C@@H](COCc2ccccc2)O[C@H]1c1ccccn1.[Cl][Rh+2] [Rh-3a] | 1.11 | – | – | – | –
Cc1ccc(C(C)C)cc1.F[P-](F)(F)(F)(F)F.N[C@@H]1[C@@H](OC(=O)c2ccccc2)[C@H](OC(=O)c2ccccc2)[C@@H](COC(=O)c2ccccc2)O[C@H]1c1ccccn1.[Cl][Ru+] [Ru-7a] | 2.46 | 2.54 | – | – | –
Cc1c(C)c(C)[c-](C)c1C.F[P-](F)(F)(F)(F)F.N[C@@H]1[C@@H](OC(=O)c2ccccc2)[C@H](OC(=O)c2ccccc2)[C@@H](COC(=O)c2ccccc2)O[C@H]1c1ccccn1.[Cl][Rh+2] [Rh-7a] | 1.88 | – | – | – | –
Cc1c(C)c(C)[c-](C)c1C.F[P-](F)(F)(F)(F)F.N[C@@H]1[C@@H](OC(=O)c2ccccc2)[C@H](OC(=O)c2ccccc2)[C@@H](COC(=O)c2ccccc2)O[C@H]1c1ccccn1.[Cl][Ir+2] [Ir-7a] | 1.96 | – | – | – | –
Cc1ccc(C(C)C)cc1.F[P-](F)(F)(F)(F)F.N[C@@H]1[C@@H](OCc2ccccc2)[C@H](OCc2ccccc2)[C@@H](COCc2ccccc2)O[C@H]1c1cnccn1.[Cl][Ru+] [Ru-3d] | 2.31 | 2.33 | – | – | –
Cc1ccc(C(C)C)cc1.F[P-](F)(F)(F)(F)F.NC1C(c2cccnn2)OC(COC(=O)c2ccccc2)C(OC(=O)c2ccccc2)C1OC(=O)c1ccccc1.[Cl][Os+] (mixture of isomers) [Os-7b] | 1.26 | – | – | – | –
Cc1ccc(C(C)C)cc1.F[P-](F)(F)(F)(F)F.N[C@@H]1[C@@H](OCc2ccccc2)[C@H](OCc2ccccc2)[C@@H](COCc2ccccc2)O[C@H]1c1ccccn1.[Cl][Ru+] [Ru-3a] | 2.98 | 1.68 | 2.87 | 3.87 | 2.55
N[C@@H]1[C@@H](OCc2ccccc2)[C@H](OCc2ccccc2)[C@@H](COCc2ccccc2)O[C@H]1c1ccccn1 [Complex 3a, 2-(2′-Amino-2′-deoxy-3′,4′,6′-tri-O-benzyl-β-D-glucopyranosyl)pyridine] | 1.33 | – | – | 2.10 | 1.77
Cc1ccc(C(C)C)cc1.F[P-](F)(F)(F)(F)F.N[C@@H]1[C@@H](OC(=O)c2ccccc2)[C@H](OC(=O)c2ccccc2)[C@@H](COC(=O)c2ccccc2)O[C@H]1c1ccccn1.[Cl][Os+] [Os-7a] | 2.26 | – | – | – | –
